Results as given in patent US20250332248.

Experiments:
[1] = test system: SARS-CoV-2 Beta variant N protein, SARS-CoV-2 Beta variant; assay: non-reducing SDS-PAGE and western blot of infected cells
[2] = test system: SARS-CoV-2 Iota variant N protein, SARS-CoV-2 Iota variant; assay: non-reducing SDS-PAGE and western blot of infected and transfected cells

| Substance | result [1] | result [2] |
| --- | --- | --- |
| SARS-CoV-2 Beta variant N protein | binds |  |
| SARS-CoV-2 Iota variant N protein |  | binds |
